Measured values from several laboratories, pooled; numbers as filed in NIAID ChemDB.

Common to all: host cell toxicity; cells: U-937; endpoint: CC50

CCn is the concentration with n% toxicity to the cells. Blank or dashed fields: not listed here. Neighbouring rows are from separate reports.

SMILES	read by	value
Nc1nc(=O)n([C@H]2CO[C@@H](CO)S2)cc1F	-	>500 µM
COC1CCC(OC2CC(C3OC(O)(CO)C(C)CC3C)OC2C2(C)CCC(C3(C)CCC4(CC(O)C(C)C(C(C)C5OC(O)(CC(=O)O)C(C)C(OC6CCC(OC)C(C)O6)C5OC)O4)O3)O2)OC1C	-	10.1 µg/mL
Nc1nc(=O)n([C@@H]2CO[C@H](CO)S2)cc1F	-	>500 µM
CCCN(C)C(=O)Oc1nsnc1-c1c(Cl)ccc(N)c1Cl	-	96 µM
CC[C@@H](O)[C@]1(C)C[C@H](C)[C@@](O)([C@H]2C[C@H](C)[C@H]([C@]3(C)CC[C@H]([C@@H]4CC[C@@]5(O[C@H]([C@@H](C)[C@@H](OC)[C@H](C)C(=O)O)[C@H](C)[C@@H](OC)[C@H]5C)O4)O3)O2)O1	-	0.55 µg/mL
Nc1ccn([C@H]2CC[C@@H](CO)O2)c(=O)n1	-	<0.95 µM
CO[C@@H]1C[C@@H](C[C@H]2CC[C@H](C)[C@H]([C@@H](C)C(=O)O)O2)O[C@]2(O[C@](C)([C@H]3CC[C@@](C)([C@@H]4O[C@@H]([C@H]5O[C@@](O)(CO)[C@H](C)C[C@@H]5C)C[C@@H]4C)O3)C[C@H]2C)[C@@H]1C	-	0.4 µg/mL
CN(C)C(=O)O/N=C1\c2ccccc2-c2c1c(-n1ccnc1)nc1ccc(Br)cc21	MTT	20 µg/mL
Nc1ccn([C@@H]2CC[C@H](CO)O2)c(=O)n1	-	42.8 µM
Cc1cc(/C=C/C#N)cc(C)c1Nc1ccnc(Nc2ccc(C#N)cc2)n1	MTT / absorbance	34 µM
O=C(CNC(=O)OCC1c2ccccc2-c2ccccc21)O/N=C1\c2ccccc2-c2c1c(N1CCN(c3ccccn3)CC1)nc1ccc(Br)cc21	MTT	>10 µg/mL
CCOC(=O)CNC(=O)N1CC=CC1=O	MTT / absorbance	324 µM
CCC(=O)O/N=C1\c2ccccc2-c2c1c(-n1ccnc1)nc1ccc(Br)cc21	MTT	>20 µg/mL
Nc1ccn([C@@H]2O[C@H](CO)C[C@@H]2F)c(=O)n1	-	7.7 µg/mL
CC(=O)OC1(C)c2ccccc2-c2c1c(-n1ccnc1)nc1ccc(Br)cc21	MTT	>10 µg/mL
Cc1cn([C@H]2C[C@H](N=[N+]=[N-])[C@@H](CO)O2)c(=O)[nH]c1=O	-	91 µM
CC(NC(=O)OC(C)(C)C)C(=O)O/N=C1\c2ccccc2-c2c1c(N1CCN(c3ccccn3)CC1)nc1ccc(Br)cc21	MTT	>10 µg/mL
NC(=O)c1ncn([C@@H]2O[C@H](CO)[C@@H](O)[C@H]2O)n1	-	>2 µM
CC(C)(C)OC(=O)NCC(=O)O/N=C1\c2ccccc2-c2c1c(N1CCN(c3ccccn3)CC1)nc1ccc(Br)cc21	MTT	>10 µg/mL
CC[C@@H](C(=O)[C@@H](C)[C@@H](O)[C@H](C)[C@@H]1O[C@@H]([C@@H](CC)C(=O)O)CC[C@@H]1C)[C@H]1O[C@@]2(C=C[C@@H](O)[C@@]3(CC[C@@](C)([C@H]4CC[C@](O)(CC)[C@H](C)O4)O3)O2)[C@H](C)C[C@@H]1C	-	0.28 µg/mL

For reference, 2 entries again:

SMILES,read by,value
Cc1cc(/C=C/C#N)cc(C)c1Nc1ccnc(Nc2ccc(C#N)cc2)n1,MTT / absorbance,34 µM
CO[C@@H]1C[C@@H](C[C@H]2CC[C@H](C)[C@H]([C@@H](C)C(=O)O)O2)O[C@]2(O[C@](C)([C@H]3CC[C@@](C)([C@@H]4O[C@@H]([C@H]5O[C@@](O)(CO)[C@H](C)C[C@@H]5C)C[C@@H]4C)O3)C[C@H]2C)[C@@H]1C,-,0.4 µg/mL